A mixed list of measured activities; the numbers were collected in NIAID ChemDB.

Common to all: enzyme or target tests; species: HIV-1; protein: Protease; read by: fluorescence; read-out: IC50

ICn: concentration for n% inhibition.

smiles | strain | result
O=C(O)CCCCCC(O)CCCCCCCCC(O)CCCCCC(=O)O |  | 90 µM
CC[C@H](C)[C@@H]1NC(=O)[C@@H](NC[C@H](O)[C@H](Cc2ccccc2)NC(=O)[C@@H](NC(=O)[C@H](CC(C)C)NC(C)=O)C(C)C)Cc2ccc(cc2)OCCCNC1=O |  | 0.002 µM
CCCCCCCCCCCCCCCC(=O)N[C@@H](Cc1ccc(O)cc1)C(=O)N[C@@H](CCC(=O)O)C(=O)N[C@@H](CC(C)C)C(=O)O |  | 0.15 µM
CC[C@H](C)[C@@H]1NC(=O)[C@@H](NC[C@@H](O)[C@H](Cc2ccc(OCC(=O)O)cc2)NC(=O)OC(C)(C)C)Cc2ccc(cc2)OCCCNC1=O |  | 0.025 µM
COc1ccc(CN2C[C@@H](O)[C@@H](Cc3ccccc3)N(Cc3cccc(N)c3)C(=O)N2Cc2cccc(N)c2)cc1 |  | 0.001 µM
O=[N+]([O-])c1cccc(CO[C@@H]2[C@H](O)[C@@H](O)[C@@H](OCc3cccc([N+](=O)[O-])c3)[C@@H](Cc3ccccc3)S(=O)(=O)[C@@H]2Cc2ccccc2)c1 |  | <2 µM
O=c1cc(-c2ccc(O)cc2)oc2cc(O)c(O)c(O)c12 |  | 58.8 µM
Cc1ccc(C(=O)N[C@@H](Cc2ccccc2)[C@@H](O)Cc2ccccc2C(=O)NC(C)(C)C)cc1C(=O)N1CCc2ccccc2C1 |  | 0.0036 µg/mL
O=S1(=O)[C@H](Cc2ccccc2)[C@H](OCc2ccncc2)[C@H](O)[C@@H](O)[C@@H](OCc2ccncc2)[C@H]1Cc1ccccc1 |  | <2 µM
CC(C)[C@H](NC(=O)CCc1ccccn1)C(=O)N[C@@H](Cc1ccccc1)C(=O)C(F)(F)[C@H](Cc1ccccc1)NC(=O)[C@H](NC(=O)CCc1ccccn1)C(C)C |  | 0.00033 µM
COC(=O)[C@@H](Cc1ccc(O)c(O)c1)OC(=O)/C=C/c1ccc(O)c(O)c1/C=C/c1ccc(O)c(O)c1 |  | 10.73 µg/mL
Cc1ccc(C(=O)N(C)Cc2ccc(F)cc2)cc1C(=O)N[C@@H](Cc1ccccc1)[C@@H](O)CN1C[C@H]2CCCC[C@H]2C[C@H]1C(=O)NC(C)(C)C |  | 0.0053 µg/mL
CC[C@H](C)[C@@H]1NC(=O)[C@@H](NC[C@@H](O)[C@H](Cc2ccccc2)NC(=O)[C@@H](NC(=O)[C@H](CC(C)C)NC(C)=O)C(C)C)Cc2ccc(cc2)OCCCNC1=O |  | 0.002 µM
Cc1ccc(C(=O)C2NCCc3ccccc32)cc1C(=O)N[C@@H](Cc1ccccc1)[C@@H](O)CN1C[C@H]2CCCC[C@H]2C[C@H]1C(=O)NC(C)(C)C |  | 0.0027 µg/mL
N#Cc1ccc(O[C@@H]2[C@H](O)[C@@H](O)[C@@H](Oc3ccc(C#N)cc3)CS[C@@H]2Cc2ccccc2)cc1 |  | 2–10 µM
CC(=O)N[C@@H](Cc1ccccc1)C(O)[C@H](Cc1ccccc1)NC(C)=O |  | <50 µM
O=C(/C=C/c1ccc(O)c(O)c1/C=C/c1ccc(O)c(O)c1)O[C@H](Cc1ccc(O)c(O)c1)C(=O)O |  | 12.23 µg/mL
Cc1ccc(CO[C@@H]2[C@H](O)[C@@H](O)[C@@H](OCc3ccc(C)cn3)[C@@H](Cc3ccccc3)S(=O)(=O)[C@@H]2Cc2ccccc2)nc1 |  | 2–10 µM
COc1cc(-c2cc(=O)c3c(O)c(OC)c(OC)c(OC)c3o2)cc(OC)c1OC |  | 11 µM
[Cl][Fe][Cl] | SF2 | >1000 µM
CCCCCCCCCCCCCCCC(=O)N[C@@H](Cc1ccccc1)C(=O)N[C@@H](CO)C(=O)N[C@@H](Cc1ccc(O)cc1)C(=O)N[C@@H](CCC(=O)O)C(=O)N[C@@H](CC(C)C)C(=O)O |  | ~0.1 µM
Nc1ccc(CO[C@@H]2[C@H](O)[C@@H](O)[C@@H](OCc3ccc(N)c(C(F)(F)F)c3)[C@@H](Cc3ccccc3)S(=O)(=O)[C@@H]2Cc2ccccc2)cc1C(F)(F)F |  | <2 µM
CCC(C1=C(O)CC2(CCCCCCC2)OC1=O)c1ccccc1 |  | >3 µM
CC[C@H](C)[C@@H]1NC(=O)[C@@H](NC[C@@H](O)[C@H](Cc2ccc(OCC(=O)OC)cc2)NC(=O)OC(C)(C)C)Cc2ccc(cc2)OCCCNC1=O |  | 0.015 µM
O=C1N(Cc2ccc(O)cc2)[C@H](Cc2ccccc2)[C@H](O)CN(Cc2ccccc2)N1Cc1ccc(O)cc1 |  | 0.0013 µM
O=C(O)CCCCCC(=O)CCCCCCCCC(=O)CCCCCC(=O)O |  | 200 µM
CCCCNC(=O)C1(C)OC(=O)C(CCc2ccccc2)=C1O |  | >100 µM
CC(C)[C@H](NC(=O)N(C)Cc1ccccn1)C(=O)N[C@@H](Cc1ccccc1)C(=O)C(F)(F)[C@H](Cc1ccccc1)NC(=O)[C@@H](NC(=O)N(C)Cc1ccccn1)C(C)C |  | 0.0004 µM
O=C(N[C@@H](Cc1ccccc1)[C@H](Cc1ccccc1)n1cc(CN2CCN(c3ccc(Cl)c(Cl)c3)CC2)nn1)OC1CCCC1 |  | <5 µM
CC[C@H](C)C(NC(=O)[C@@H]1CCCN1C[C@@H](O)[C@@H]1Cc2ccc(cc2)OCCCC(=O)N[C@@H](CC(N)=O)C(=O)N1)C(N)=O |  | 8.5 µM
CCOC(=O)[C@@H](Cc1ccc(O)c(O)c1)OC(=O)/C=C/c1ccc(O)c(O)c1/C=C/c1ccc(O)c(O)c1 |  | 12.03 µg/mL
CCCCOC(=O)COc1ccc(C[C@H](NC(=O)OC(C)(C)C)[C@H](O)CN[C@H]2Cc3ccc(cc3)OCCCNC(=O)[C@H]([C@@H](C)CC)NC2=O)cc1 |  | 0.005 µM
Cc1ccc(C(=O)N(C)Cc2ccccc2)cc1C(=O)N[C@@H](Cc1ccccc1)[C@@H](O)CN1CC2CCCCC2CC1C(=O)NC(C)(C)C |  | 0.0191 µg/mL
CC[C@H](C)[C@H](NC(=O)[C@@H]1CCCN1C[C@H](O)[C@H](Cc1ccccc1)NC(=O)[C@H](CC(N)=O)NC(=O)[C@H](CC(C)C)NC(=O)[C@H](CO)NC(C)=O)C(=O)N[C@H](C(=O)OC)C(C)C |  | 0.001 µM
CC(C)C[C@H](NC(=O)CCCCCCCCCC(=O)N[C@@H](CC(N)=O)C(=O)N[C@@H](Cc1ccccc1)C(=O)O)C(=O)N[C@@H](Cc1ccccc1)C(N)=O |  | 101 µM
CC(C)[C@H](NS(=O)(=O)CCc1ccccn1)C(=O)N[C@@H](Cc1ccccc1)C(=O)C(F)(F)[C@H](Cc1ccccc1)NC(=O)[C@@H](NS(=O)(=O)CCc1ccccn1)C(C)C |  | 0.00024 µM
Cc1ccc(C(=O)N(C)Cc2cccc3ccccc23)cc1C(=O)N[C@@H](Cc1ccccc1)[C@@H](O)CN1C[C@H]2CCCC[C@H]2C[C@H]1C(=O)NC(C)(C)C |  | 0.0084 µg/mL
Nc1c(O)c(S(=O)(=O)O)c(O)c2c1C(=O)c1ccccc1C2=O |  | 70 µM
CCCCCCCCCCCCCCCC(=O)N[C@@H](Cc1ccc(O)cc1)C(=O)N[C@@H](CCC(=O)O)C(=O)N[C@@H](Cc1ccc(Oc2ccc(O)cc2)cc1)C(=O)O |  | ~0.05 µM
O=c1cc(-c2ccc(O)cc2)oc2cc(O)cc(O)c12 |  | 60 µM
N#Cc1ccccc1O[C@@H]1[C@H](O)[C@@H](O)[C@@H](Oc2ccccc2C#N)CS(=O)[C@@H]1Cc1ccccc1 |  | 10–50 µM
O=c1c(O)c(-c2ccccc2O)oc2ccccc12 |  | 12 µM
Cc1ccc(C(=O)NCc2ccccc2)cc1C(=O)N[C@@H](Cc1ccccc1)[C@@H](O)CN1C[C@H]2CCCC[C@H]2C[C@H]1C(=O)NC(C)(C)C |  | 0.278 µg/mL
CC[C@H](C)[C@H](NC(=O)[C@H](Cc1ccccc1)NC[C@H](O)[C@H](Cc1ccccc1)NC(=O)[C@@H](NC(=O)[C@H](CC(C)C)NC(C)=O)C(C)C)C(=O)N[C@H](C(N)=O)C(C)C |  | 0.005 µM
CC[C@H](C)[C@H](NC(=O)[C@@H](NC(=O)CCCOc1ccc2ccc(OCCCC(=O)N[C@H](C(=O)N[C@H](C(=O)N[C@H](C(=O)OC)C(C)C)[C@@H](C)CC)[C@@H](C)O)nc2c1)[C@@H](C)O)C(=O)N[C@H](C(=O)OC)C(C)C |  | >5.7 µM
Cc1ccc(Cl)cc1N1CCN(Cc2cn([C@@H](Cc3ccccc3)[C@H](Cc3ccccc3)NC(=O)OC3CCCCC3)nn2)CC1 |  | <5 µM
CC(C)(C)OC(=O)NC(Cc1ccccc1)C(O)C(Cc1ccccc1)NC(=O)[C@H](CC(N)=O)NC(=O)OCc1ccccc1 |  | <0.1 µM
O=C(O)CCCCCCCCCCCCCCCCCCCCC(=O)O |  | 12 µM
C[C@@H]1O[C@@H](OC[C@H]2O[C@@H](Oc3c(-c4ccc(O)cc4)oc4cc(O[C@@H]5O[C@@H](C)[C@H](O)[C@@H](O)[C@H]5O)cc(O)c4c3=O)[C@H](O)[C@@H](O)[C@H]2O)[C@H](O)[C@H](O)[C@H]1O |  | <50 µg/mL
Cc1cccc(COC(=O)N[C@H](C(=O)N[C@@H](Cc2ccccc2)C(=O)C(F)(F)[C@H](Cc2ccccc2)NC(=O)[C@@H](NC(=O)OCc2cccc(C)n2)C(C)C)C(C)C)n1 |  | 0.00005 µM
CC(C)[C@H](NC(=O)OCc1ccccc1)C(=O)NC(Cc1ccccc1)C(O)C(Cc1ccccc1)NC(=O)OC(C)(C)C |  | >0.01 µM
CC(C)[C@H](NC(=O)N(C)Cc1ccccn1)C(=O)N[C@@H](Cc1ccccc1)[C@H](O)[C@@H](O)[C@H](Cc1ccccc1)NC(=O)[C@@H](NC(=O)N(C)Cc1ccccn1)C(C)C |  | <0.001 µM
O=C1c2ccc(O)c(O)c2C(=O)c2c(O)ccc(O)c21 |  | 35 µM
CC(C)(C)OC(=O)N[C@@H](Cc1ccccc1)[C@H](O)[C@H](O)[C@H](Cc1ccccc1)NC(=O)OC(C)(C)C |  | >0.01 µM
COC(=O)[C@@H](NC(=O)[C@H](CC(C)C)NC(=O)[C@@H](NC(=O)CCCOc1ccc2ccc(OCCCC(=O)N[C@@H](CCC(=O)O)C(=O)N[C@@H](CC(C)C)C(N)=O)cc2n1)C(C)C)C(C)C |  | >5.7 µM
Cc1ccc(Cl)cc1N1CCN(Cc2cn([C@@H](Cc3ccccc3)[C@H](Cc3ccccc3)NC(=O)C3CCCC3)nn2)CC1 |  | >5 µM
O=C1C=C(O)c2ccccc2C1=O |  | >100 µM
Cc1ccc(C(=O)N(C)Cc2ccc3ccccc3c2)cc1C(=O)N[C@@H](Cc1ccccc1)[C@@H](O)CN1C[C@H]2CCCC[C@H]2C[C@H]1C(=O)NC(C)(C)C |  | 0.0066 µg/mL
O=[N+]([O-])[O][Pb][O][N+](=O)[O-] | SF2 | 18 µM
O=C1c2cccc(O)c2C(=O)c2c(O)cccc21 |  | 110 µM

Repeating the final 8 entries:

{"smiles": "O=C1c2ccc(O)c(O)c2C(=O)c2c(O)ccc(O)c21", "result": "35 µM"}
{"smiles": "CC(C)(C)OC(=O)N[C@@H](Cc1ccccc1)[C@H](O)[C@H](O)[C@H](Cc1ccccc1)NC(=O)OC(C)(C)C", "result": ">0.01 µM"}
{"smiles": "COC(=O)[C@@H](NC(=O)[C@H](CC(C)C)NC(=O)[C@@H](NC(=O)CCCOc1ccc2ccc(OCCCC(=O)N[C@@H](CCC(=O)O)C(=O)N[C@@H](CC(C)C)C(N)=O)cc2n1)C(C)C)C(C)C", "result": ">5.7 µM"}
{"smiles": "Cc1ccc(Cl)cc1N1CCN(Cc2cn([C@@H](Cc3ccccc3)[C@H](Cc3ccccc3)NC(=O)C3CCCC3)nn2)CC1", "result": ">5 µM"}
{"smiles": "O=C1C=C(O)c2ccccc2C1=O", "result": ">100 µM"}
{"smiles": "Cc1ccc(C(=O)N(C)Cc2ccc3ccccc3c2)cc1C(=O)N[C@@H](Cc1ccccc1)[C@@H](O)CN1C[C@H]2CCCC[C@H]2C[C@H]1C(=O)NC(C)(C)C", "result": "0.0066 µg/mL"}
{"smiles": "O=[N+]([O-])[O][Pb][O][N+](=O)[O-]", "strain": "SF2", "result": "18 µM"}
{"smiles": "O=C1c2cccc(O)c2C(=O)c2c(O)cccc21", "result": "110 µM"}

Lines come from different laboratories, so protocols vary. Two numbers with a dash give a range or band. Blank or dashed fields: not listed here.